Pooled drug test results. Numbers come from NIAID ChemDB, via PubChem.

Shared fields: tests on isolated targets

Percent inhibition refers to the dose given; in toxicity tests it is the harm to the cells.

structure,strain or isolate,target,agent,dose,measure,read by,result
Cc1cc(SC2=C(O)CC(CCc3cc(Cl)c(N)c(Cl)c3)(C(C)C)OC2=O)c(C(C)(C)C)cc1N,-,Nonstructural protein 5B,Hepatitis C virus,-,IC50,-,10–50 µM
CNC(=O)c1c(-c2ccc(F)cc2)oc2cc(N(C)S(C)(=O)=O)c(OC)cc12,-,Nonstructural protein 5B,Hepatitis C virus,-,IC50,-,≤0.5 µM
N#Cc1cccc(-c2cc(NS(=O)(=O)c3ccccn3)cs2)c1,-,NS3 ATPase,Hepatitis C virus,-,IC50,-,<5 µM
O=C(O)[C@@H]1C[C@@H](O)CN1C(=O)c1cnn2c(C3CCCCC3)c(-c3ccc(F)cc3)cnc12,-,RNA-dependent RNA polymerase,Hepatitis C virus,-,IC50,-,>10 µM
C=CC1CC1(NC(=O)[C@@H]1C[C@@H](OC(=O)Nc2c(C)cccc2Cl)CN1C(=O)[C@@H](NC(=O)OC(C)(C)C)C(C)(C)C)C(=O)NS(=O)(=O)C1CC1,BMS/H77C/J416S,NS3/NS4A protease,Hepatitis C virus,-,IC50,-,0.1–1 µM
Cc1ccc(C(=O)N(C)c2cc(-c3cccc(F)c3)sc2C(=O)O)cc1,-,NS3 ATPase,Hepatitis C virus,-,IC50,-,<5 µM
CNC(=O)c1c(-c2ccc(F)cc2)oc2cc(OC)c(OC(C)C)cc12,-,Nonstructural protein 5B,Hepatitis C virus,-,IC50,-,≤0.5 µM
Cc1ccccc1S(=O)(=O)Nc1cc(CCc2ccccc2)sc1C(=O)O,-,NS3 ATPase,Hepatitis C virus,-,IC50,-,5–20 µM
Cc1noc([C@H]2C[C@@](CC(C)C)(C(=O)O)N(C(=O)c3ccc(C(C)(C)C)c(Cl)c3)[C@H]2c2nccs2)n1,-,RNA-dependent RNA polymerase,Hepatitis C virus,-,IC50,-,<50 µM
CNC(=O)c1c(-c2ccc(F)cc2)oc2cc(N(C)S(C)(=O)=O)c(OCC(C)(C)O)cc12,-,Nonstructural protein 5B,Hepatitis C virus,-,IC50,-,≤0.5 µM
Cc1ccc(C(=O)N(c2cc(-c3ccccc3)sc2C(=O)O)C(C)C)c(/C=N/O)c1,-,NS3 ATPase,Hepatitis C virus,-,IC50,-,5–20 µM
CC(C)C[C@@]1(C(=O)O)C[C@H](c2nnco2)[C@H](c2nccs2)N1C(=O)c1ccc(C(C)(C)C)cc1,-,RNA-dependent RNA polymerase,Hepatitis C virus,-,IC50,-,<50 µM
CCN(c1cc2oc(-c3ccc(F)cc3)c(C(=O)NC)c2cc1F)S(C)(=O)=O,-,Nonstructural protein 5B,Hepatitis C virus,-,IC50,-,≤0.5 µM
O=C(O)c1sc(-c2ccccc2)cc1NC(=O)N1CCC(n2c(=O)[nH]c3ccccc32)CC1,-,NS3 ATPase,Hepatitis C virus,-,IC50,-,>20 µM
CC[C@H](C)[C@]1(CC(=O)O)OCCc2c1[nH]c1c(C)c(OCCn3cccn3)cc(C#N)c21,BK,HCV polymerase,Hepatitis C virus,-,IC50,nucleotide incorporation,0.012 µM
CC(C)C[C@@]1(C(=O)O)C[C@H](c2ncno2)[C@H](c2nc3ccccc3s2)N1C(=O)c1ccc(C(C)(C)C)c(Br)c1,-,RNA-dependent RNA polymerase,Hepatitis C virus,-,IC50,-,<50 µM
Cc1cc(OS(=O)(=O)c2cn(C)cn2)c(C(C)(C)C)c(SC2=C(O)CC(C3CCCC3)(C3CCCC3)OC2=O)c1,-,Nonstructural protein 5B,Hepatitis C virus,-,IC50,-,10–50 µM
CCNC(=O)c1c(-c2ccc(F)cc2)oc2cc(-c3c(C)noc3C)c(OC)cc12,-,Nonstructural protein 5B,Hepatitis C virus,-,IC50,-,≤0.5 µM
COc1cccc(CCC2(C3CCCC3)CC(O)=CC(=O)O2)c1,-,Nonstructural protein 5B,Hepatitis C virus,-,IC50,-,10–50 µM
Cc1noc([C@@H]2C[C@@](CC(C)C)(C(=O)O)N(C(=O)c3ccc(C(C)(C)C)c(Br)c3)[C@H]2c2ccccn2)n1,-,RNA-dependent RNA polymerase,Hepatitis C virus,-,IC50,-,<50 µM
CNC(=O)c1c(-c2ccc(F)cc2)oc2cc(N(CCO)S(C)(=O)=O)c(OC(C)C)cc12,-,Nonstructural protein 5B,Hepatitis C virus,-,IC50,-,≤0.5 µM
Cc1cc([C@@H]2C[C@@](CC(C)C)(C(=O)O)N(C(=O)c3ccc(C(C)(C)C)cc3)[C@H]2c2nccs2)on1,-,RNA-dependent RNA polymerase,Hepatitis C virus,-,IC50,-,<50 µM
CS(=O)(=O)c1ccc(COc2ccc(-c3cnc4c(-c5nn[nH]n5)cnn4c3C3CCCCC3)cc2)cc1,-,RNA-dependent RNA polymerase,Hepatitis C virus,-,IC50,-,<1 µM
C=CC1CC1(NC(=O)[C@@H]1C[C@@H](OC(=O)Nc2ccccc2[N+](=O)[O-])CN1C(=O)[C@@H](NC(=O)OC(C)(C)C)C(C)(C)C)C(=O)NS(=O)(=O)C1CC1,BMS/H77C/J416S,NS3/NS4A protease,Hepatitis C virus,-,IC50,-,<0.1 µM
CC(C)C[C@@]1(C(=O)O)C[C@H](c2ncno2)[C@H](c2nc3ccccc3s2)N1C(=O)c1ccc(C(C)(C)C)cc1,-,RNA-dependent RNA polymerase,Hepatitis C virus,-,IC50,-,<50 µM
C=CC1CC1(NC(=O)[C@@H]1C[C@@H](OC(=O)Nc2ccccc2-c2ncn[nH]2)CN1C(=O)[C@@H](NC(=O)OC(C)(C)C)C(C)(C)C)C(=O)NS(=O)(=O)C1CC1,BMS/H77C/J416S,NS3/NS4A protease,Hepatitis C virus,-,IC50,-,<0.1 µM
CC(C)N(C(=O)c1cc(Cl)cc(Cl)c1)c1cc(-c2ccccc2)sc1C(=O)O,-,NS3 ATPase,Hepatitis C virus,-,IC50,-,5–20 µM
C=CC1CC1(NC(=O)[C@@H]1C[C@@H](OC(=O)N2CCc3ccccc3C2)CN1C(=O)[C@@H](NCC1CC1)C(C)(C)C)C(=O)NS(=O)(=O)C1CC1,BMS/H77C/J416S,NS3/NS4A protease,Hepatitis C virus,-,IC50,-,<0.1 µM
Oc1ccc(-c2cnc3c(-c4nn[nH]n4)cnn3c2C2CCCCC2)cc1,-,RNA-dependent RNA polymerase,Hepatitis C virus,-,IC50,-,>10 µM
C=CC1CC1(NC(=O)[C@@H]1C[C@@H](OC(=O)Nc2cccc(SC)c2)CN1C(=O)[C@@H](NC(=O)OC(C)(C)C)C(C)(C)C)C(=O)NS(=O)(=O)C1CC1,BMS/H77C/J416S,NS3/NS4A protease,Hepatitis C virus,-,IC50,-,<0.1 µM
Cc1ccccc1S(=O)(=O)Nc1cc(-c2cccc(Cl)c2)sc1C(=O)O,-,NS3 ATPase,Hepatitis C virus,-,IC50,-,<5 µM
O=C(O)c1cc2nc(-c3cccc(Oc4ccccc4)c3)cc(NCc3ccccc3Cl)n2n1,-,RNA-dependent RNA polymerase,Hepatitis C virus,-,IC50,-,1–10 µM
CC(C)C[C@@]1(C(=O)O)C[C@H](c2ncon2)[C@H](c2nccs2)N1C(=O)c1ccc(C(C)(C)C)cc1,-,RNA-dependent RNA polymerase,Hepatitis C virus,-,IC50,-,<50 µM
C=CC1CC1(NC(=O)[C@@H]1C[C@@H](OC(=O)Nc2ccccc2I)CN1C(=O)[C@@H](NC(=O)OC(C)(C)C)C(C)(C)C)C(=O)NS(=O)(=O)C1CC1,BMS/H77C/J416S,NS3/NS4A protease,Hepatitis C virus,-,IC50,-,<0.1 µM
O=C(O)c1sc(-c2ccccc2)cc1NS(=O)(=O)c1cc(Cl)c(O)c(Cl)c1,-,NS3 ATPase,Hepatitis C virus,-,IC50,-,5–20 µM
C=CC1CC1(NC(=O)[C@@H]1C[C@@H](OC(=O)Nc2cc([N+](=O)[O-])ccc2C)CN1C(=O)[C@@H](NC(=O)OC(C)(C)C)C(C)(C)C)C(=O)NS(=O)(=O)C1CC1,BMS/H77C/J416S,NS3/NS4A protease,Hepatitis C virus,-,IC50,-,<0.1 µM
COC(=O)CCC(=O)Nc1cnn2c(C3CCCCC3)c(-c3ccc(OCc4ccccc4)cc3)cnc12,-,RNA-dependent RNA polymerase,Hepatitis C virus,-,IC50,-,>10 µM
C=CC1CC1(NC(=O)[C@@H]1C[C@@H](OC(=O)N2CCOCC2)CN1C(=O)[C@@H](NC(=O)OC(C)(C)C)C(C)(C)C)C(=O)NS(=O)(=O)C1CC1,BMS/H77C/J416S,NS3/NS4A protease,Hepatitis C virus,-,IC50,-,0.1–1 µM
COc1ccc(Oc2cccc(CCC3(C4CCCC4)CC(O)=CC(=O)O3)c2)cc1,-,Nonstructural protein 5B,Hepatitis C virus,-,IC50,-,10–50 µM
Cc1noc([C@@H]2C[C@@](CC(C)C)(C(=O)O)N(C(=O)c3ccc(C(C)(C)C)c(Cl)c3)[C@H]2c2nccs2)n1,-,RNA-dependent RNA polymerase,Hepatitis C virus,-,IC50,-,<50 µM
O=C(/C=C/c1ccc(O)c(O)c1)O[C@H]1[C@H](O)C[C@](O)(C(=O)O)C[C@H]1OC(=O)/C=C/c1ccc(O)c(O)c1,HepG 2.2.15,HBsAg,Hepatitis B virus,10 µg/mL,inhibition,ELISA,5.48%

A second listing of 5 rows from above:

structure	strain or isolate	target	agent	dose	measure	read by	result
Cc1ccc(C(=O)N(C)c2cc(-c3cccc(F)c3)sc2C(=O)O)cc1	-	NS3 ATPase	Hepatitis C virus	-	IC50	-	<5 µM
COc1ccc(Oc2cccc(CCC3(C4CCCC4)CC(O)=CC(=O)O3)c2)cc1	-	Nonstructural protein 5B	Hepatitis C virus	-	IC50	-	10–50 µM
CNC(=O)c1c(-c2ccc(F)cc2)oc2cc(OC)c(OC(C)C)cc12	-	Nonstructural protein 5B	Hepatitis C virus	-	IC50	-	≤0.5 µM
O=C(O)c1sc(-c2ccccc2)cc1NS(=O)(=O)c1cc(Cl)c(O)c(Cl)c1	-	NS3 ATPase	Hepatitis C virus	-	IC50	-	5–20 µM
Cc1cc([C@@H]2C[C@@](CC(C)C)(C(=O)O)N(C(=O)c3ccc(C(C)(C)C)cc3)[C@H]2c2nccs2)on1	-	RNA-dependent RNA polymerase	Hepatitis C virus	-	IC50	-	<50 µM

Two numbers with a dash give a range or band. An empty or dashed field is not shown. Rows are shuffled and stem from different studies. ICn: concentration for n% inhibition.